Results published in article PMC9033297.

Target: ACE2 protein fused to Fc domain (ACE2-Fc) (UniProt Q9BYF1)
Assay: BLI

Question: Which results are given for “RBM-CH3(scaffold) (from UniProt P0DTC2 416-525)”?
Answer: Kd: 350 nM; koff: 0.0016 s⁻¹; kon: 4500 M⁻¹ s⁻¹
